This is an account of results in US7468186B2, “Polyomavirus cellular epitopes and uses therefor” (priority 2005, dated 2008).

This assay deals with CD8+ T lymphocytes of PBMC. Nature of the assay: In vitro stimulation of human PBMC with peptide and rIL-2, then tetramer reagent labeling and flow analysis. To be noted: healthy HLA-A2 volunteers, summary of Table IV.

Regarding ILMWEAVTL [JC100], the “individuals positive for staining with the JC100 tetramer reagent after in vitro stimulation” value is given as 6 of 20.
